Compound potency records, mixed from different reports. Data source: NIAID ChemDB in PubChem.

Common to all: host cell toxicity; measure: CC50

An empty or dashed field is not shown.

smiles,cells,read by,setting,value
O=c1[nH]c(=O)n([C@H]2C[C@H](O)[C@@H](CO)O2)cc1/C=C/Br,CBMC,MTT,-,201 µM
S=C(NCCC1=CCCCC1)Nc1ccc(Cl)cn1,Human vaginal epithelial,-,-,578 µM
OC[C@H]1O[C@@H](n2cnc3c(NC4CC4)cc(Cl)nc32)C[C@@H]1O,Sheep chondrocytes G81092,-,-,236 µM
CC(C)CNc1ncnc2c1ncn2CCOCP(=O)(O)O,P3HR-1,-,-,>100 µg/mL
CCOc1ccc(C(C)=O)cc1C(=O)NC1N=C(c2ccccc2)c2ccccc2NC1=O,HEP-2,-,-,3.5 µM
COC(=S)P(=O)([O-])SC,BCBL-1,-,-,>200 µM
NC(=S)N=Nc1c(O)n(CN2CCN(c3ccnc4cc(Cl)ccc34)CC2)c2cccc(Cl)c12,Human foreskin fibroblasts,MTT / absorbance,-,5 µM
FC(F)(F)c1ccc(NC(=S)NCCc2ccccc2)nc1,HUMAN SPERM,-,-,>500 µM
Nc1ncnc2c1ncn2C[C@@H](CF)OCP(=O)(O)O,HSB-2,-,-,>300 µM
C[C@@H](O)C1=C[C@@H](n2cnc3c(N)ncnc32)[C@H](O)[C@@H]1O,LLC-MK2,MTT / neutral red,-,5.6 µg/mL
O=c1[nH]c(=O)n([C@H]2C[C@H](O)[C@@H](CO)O2)cc1/C=C/Br,SupT1,-,-,20 µg/mL
S=C(NCCc1ccccc1Cl)Nc1ccc(Br)cn1,Human vaginal epithelial,-,-,>1000 µM
COc1ccc(C(=O)NC2N=C(c3ccccc3)c3ccccc3NC2=O)cc1,VERO,-,-,1.5 µM
OC[C@@H]1C[C@@H](O)[C@H](n2cnc3c(NC4CCCCC4)nccc32)O1,Sheep chondrocytes G81092,-,-,>400 µM
CC1C(=O)N(O)c2ncc(Br)cc2C1O,HepG2-NTCP-12,MTS,7 d,61.7 µM
COc1ccc(CC(=O)NC2N=C(c3ccccc3)c3ccccc3NC2=O)cc1,VERO,-,-,1.5 µM
Nc1ncnc2c1ncn2C[C@@H](CF)OCP(=O)(O)O,P3HR-1,-,-,160 µg/mL
Nc1ncnc2c1cnn2C[C@@H](CO)OCP(=O)(O)O,HSB-2,-,-,12 µM
FC(F)(F)c1ccc2c(NCCCN3CCCC3)ccnc2c1,Human foreskin fibroblasts,MTT / absorbance,-,10 µM
CCOC(=O)c1ccc2nc(-c3ccc(C(=O)O)cc3)[nH]c2c1,Vero cell,MTT,-,>62.5 µg/mL
Nc1ccn(C[C@@H](CO)OCP(=O)(O)O)c(=O)n1,HB611,-,-,193 µM
Fc1ccccc1CCNC(=S)Nc1ccc(Br)cn1,HUMAN SPERM,-,-,147 µM
Nc1nc(Cl)cc2c1ncn2[C@@H]1O[C@H](CO)C[C@H]1O,MDBK,-,-,<50 µM
O=C(O)C1=CC(=C(c2ccc(O)c(C(=O)O)c2)c2ccc(O)c(C(=O)O)c2)C=CC1=O,CD4+ T lymphocytes,-,-,100 µg/mL
Nc1nc(N)c2ncn(C[C@@H](CO)OCP(=O)(O)O)c2n1,CBMC,MTT,-,27 µM
Nc1ncnc2c1ncn2C[C@H]1COP(=O)(O)CO1,HSB-2,-,-,146 µM
Nc1ccn(CCOCCP(=O)(O)O)c(=O)n1,HB611,-,-,>400 µM
[O-]P([O-])(=S)C(=S)[S-],BCBL-1,-,-,>200 µM
O=C(O)P(=O)(O)O,CBMC,MTT,-,893 µM
Nc1ncnc2c1ncn2CCOCP(=O)(O)O,CD4+ T lymphocytes,-,-,54 µg/mL
CCOC(=O)c1ccc2c(c1)nc(-c1ccc(O)cc1)n2CCN1CCCOC1,Vero cell,MTT,-,>62.5 µg/mL
Nc1nc(Cl)nc2c1ncn2[C@H]1CC[C@@H](CO)O1,Sheep chondrocytes G81092,-,-,195 µM
O=C([S-])P([O-])([O-])=S,BCBL-1,-,-,>200 µM
OC[C@@H]1CC[C@H](n2cnc3c(NC4CC4)ncnc32)O1,MDBK,-,-,>400 µM
CSC(=O)P(=O)([O-])SC,BCBL-1,-,-,>200 µM
Nc1nc(N)c2ncn(CC(CF)OCP(=O)(O)O)c2n1,HB611,-,-,200 µM
COc1cccc(C2(c3ccccc3)NC(NC(=O)N3CCCCC3)C(=O)Nc3ccccc32)c1,HEP-2,-,-,5 µM
CCOC(=O)c1ccc2c(c1)nc(-c1ccc(O)c(OC)c1)n2CCN1CCCOC1,Vero cell,MTT,-,>62.5 µg/mL
O=c1[nH]c(=O)n([C@@H]2O[C@H](CO)[C@@H](O)[C@@H]2O)cc1/C=C/Br,CBMC,MTT,-,106 µM
Nc1ncnc2c1ncn2[C@H]1CC[C@@H](CO)O1,MDBK,-,-,<50 µM
FC(F)(F)c1ccc(NC(=S)NCCN2CCCCC2)nc1,HUMAN SPERM,-,-,131 µM
O=C(O)P(=O)(O)O,U87MG,-,-,200 µg/mL
CC(OCP(=O)(O)O)[C@@H](O)n1cnc(=N)c2[nH]cnc21,HB611,-,-,>100 µM
CON=C1C[C@H](n2cc(C)c(=O)[nH]c2=O)O[C@@H]1CO,P3HR-1,-,-,>100 µg/mL
Nc1ncnc2c1ncn2CC(O)P(=O)(O)O,HB611,-,-,>400 µM
S=C(NCCc1ccccn1)Nc1ccccn1,HUMAN SPERM,-,-,279 µM
OC[C@@H]1CC[C@H](n2cnc3c(NC4CCCCCC4)nc(Cl)nc32)O1,Sheep chondrocytes G81092,MTT,-,125 µM
CCOC(=O)c1ccc2c(c1)nc(-c1ccc(N3CCOCC3)cc1)n2CCN1CCCC1=O,Vero cell,MTT,-,>62.5 µg/mL
O=c1[nH]c(=O)n([C@H]2C[C@H](O)[C@@H](CO)O2)cc1/C=C/Br,TR-14,-,-,>200 µg/mL
CC(O)(Cn1cnc2c(N)ncnc21)P(=O)(O)O,HB611,-,-,92 µM
CC(=O)O/N=C1/C[C@H](n2cc(C)c(=O)[nH]c2=O)O[C@@H]1CO,P3HR-1,-,-,>20 µg/mL
Oc1cccc2cccnc12,Human foreskin fibroblasts,MTT / absorbance,-,0.5 µM
Nc1nc2c(ncn2COCCO)c(=O)[nH]1,SupT1,-,-,>250 µg/mL
O=C1C(=O)N(CN2CCN(c3ccnc4cc(Cl)ccc34)CC2)c2ccccc21,Human foreskin fibroblasts,MTT / absorbance,-,8 µM
Nc1nc2c(ncn2COC(CO)CO)c(=O)[nH]1,HSB-2,MTT,-,54 µM
Nc1nc2c(ncn2COC(CO)CO)c(=O)[nH]1,HSB-2,-,-,54 µM
CCOC(=O)c1ccc2nc(-c3ccc([N+](=O)[O-])cc3)[nH]c2c1,Vero cell,MTT,-,>62.5 µg/mL
Nc1nccc2c1ncn2C[C@H]1COP(=O)(O)CO1,HSB-2,-,-,45 µM
Nc1nccc2c1ncn2CCOCCP(=O)(O)O,HB611,-,-,400 µM
CCOC(=O)c1ccc2c(c1)nc(-c1ccc([N+](=O)[O-])cc1)n2CCN1CCCC1=O,Vero cell,MTT,-,>62.5 µg/mL
OC[C@H]1O[C@@H](n2cnc3c(NC4CCCCCC4)nc(Cl)nc32)CC1O,MDBK,-,-,130 µM

Conditions beyond the fields shown may differ between rows. CCn: concentration that lowers growth or viability of the cells by n%.